Results taken from PubChem BioAssay AID652162 (Broad Institute, 2013).
This is a selection; strong and weak results do not stand in their true shares. Active and inactive are the calls of the source. Rule as the data show it: active = inhibition above about 10%; inactive = the rest.

biological target: Toxin B (Clostridioides difficile) (UniProt P18177); assay: TcdB glycohydrolase inhibitors, primary screen, biochemical, single point, plate reader (AID 652162); conditions: TcdB glycohydrolase enzymatic assay, at 9.99 µM, stronger effect = higher value

| SMILES | inhibition |
| --- | --- |
| CCC1=CC2Cc3nc4ccc(Cl)cc4c(N)c3C(C1)C2 (stereo not drawn) | inactive: 0.515% |
| CCOP(=O)(NC(=NC(C)c1ccccc1)NC(C)c1ccccc1)OCC (stereo not drawn) | inactive: 1.32% |
| CCOP(=O)(Nc1ccc(C)cn1)OCC | inactive: 0.42% |
| CN(CCCl)Cc1cc(Cl)c(NC2=NCCN2)c(Cl)c1 | inactive: 3.24% |
| CN(C(=O)Cc1ccc(Cl)c(Cl)c1)[C@@H]1CCCC[C@H]1N1CCCC1 | inactive: 2.02% |
| CC(C)/C=N\N=C(\N)N[N+](=O)[O-] | inactive: -0.482% |
| CN(C(=O)Cc1ccc(Cl)c(Cl)c1)C1CCCC[C@@H]1N1CCCC1 (stereo partly drawn) | inactive: 0.444% |
| COc1ccccc1CNC(=O)COC(=O)C(O)(c1ccccc1)c1ccccc1 | inactive: 0.213% |
| O=C(O)C(=O)c1ccc(N(CCCl)CCCl)cc1 | inactive: 1.47% |
| O=C(Nc1ccncc1[N+](=O)[O-])c1ccc([N+](=O)[O-])cc1[N+](=O)[O-] | inactive: 0.57% |
| COP1(=S)c2c(C)nn(CCC#N)c2N=C(c2ccc(F)cc2)N1C (stereo not drawn) | inactive: 0.29% |
| COC(=O)C1(C)COP(=O)(N2CCCC2)OC1 (stereo not drawn) | inactive: 0.713% |
| O=C(OC1CN2CCC1CC2)c1cccc([N+](=O)[O-])c1 (stereo not drawn) | inactive: 0.195% |
| CCOC(=O)c1ccc(NC(=O)C(C)(CCl)SC)cc1 (stereo not drawn) | inactive: -0.939% |
| COP(=O)(OC)N1CC1c1ccccc1 (stereo not drawn) | inactive: -1.29% |
| CCCCOc1ccc(C(=O)NCC2(N3CCCCC3)CCCCC2)cc1OC | inactive: 0.364% |
| O=C(O)C(O)c1ccc(N(CCCl)CCCl)cc1 (stereo not drawn) | inactive: -4.46% |
| CCOC(=O)Nc1ccc([As](=O)(O)O)c(O)c1 | inactive: 0.668% |
| CC1CCNP(=O)(N(CCCl)CCCl)O1 (stereo not drawn) | inactive: -2.32% |
| Cc1cc(SC(NC=O)C(Cl)(Cl)Cl)ncn1 (stereo not drawn) | inactive: 0.872% |
| O=P(Nc1ccccn1)(c1cccc2ccccc12)c1cccc2ccccc12 | inactive: 0.384% |
| O=[N+]([O-])c1ccc(Nc2ccc(Oc3ccc([N+](=O)[O-])cc3[N+](=O)[O-])cc2)c([N+](=O)[O-])c1 | inactive: 0.951% |

| SMILES | inhibition |
| --- | --- |
| CCOC(=O)Nc1cccc([As](=O)(O)O)c1 | inactive: -1.56% |
| Cc1ccc(OP(=O)(Nc2ccc([N+](=O)[O-])cn2)Oc2ccc(C)cc2)cc1 | inactive: 1.16% |
| [N-]=[N+]=NC1CCCCC1NC(=O)c1cc([N+](=O)[O-])cc([N+](=O)[O-])c1 (stereo not drawn) | inactive: 0.708% |
| Cc1ccc2nc3c(c(C)c2c1)CC(C(Cl)Cl)S3 (stereo not drawn) | inactive: -1.24% |
| C[As](=O)(O)c1cccc(C(=O)O)c1 | inactive: 0.35% |
| O=[As](O)(c1ccc(O)cc1)c1ccccc1O | inactive: 0.047% |
| O=[N+]([O-])c1ccc(-c2cc([N+](=O)[O-])c(O)c([N+](=O)[O-])c2)cc1 | inactive: -1.65% |
| COc1cc(C(=O)NCC2(N3CCOCC3)CCCCC2)ccc1OCC(C)C | inactive: 1.38% |
| CC(C)NC(=O)NP(=O)(Oc1ccccc1)Oc1ccccc1 | inactive: 0.477% |
| O=C(OC1CN2CCC1CC2)c1cccc2[nH]cnc12 (stereo not drawn) | inactive: -1.08% |
| COC(=O)C1(C)COP(=O)(N2CCCCCC2)OC1 (stereo not drawn) | inactive: -0.806% |
| CC(C)c1ccc(OP(=O)(Nc2ccccn2)Oc2ccccc2F)cc1 (stereo not drawn) | inactive: 1.75% |
| O=P1(N(CCCl)CCCl)OCCCN1CCCl (stereo not drawn) | inactive: 5.02% |
| O=P1(N(CCCl)CCCl)Nc2ccccc2N1 | inactive: -0.005% |
| COc1ccc(CN2/C(=N\P(=O)(Oc3ccccc3)Oc3ccccc3)Cc3ccccc3C2C2CC2)cc1 (stereo not drawn) | inactive: -0.296% |
| COc1ccc2nc(NP(=O)(c3ccccc3)c3ccccc3)sc2c1 | inactive: 0.244% |
| COc1cc(I)ccc1[As](=O)(O)O | inactive: -0.694% |
| Cc1c2c(nc3ccccc13)SC(C(Cl)Cl)C2 (stereo not drawn) | inactive: 0.025% |
| Cc1cc(=O)[nH]c(N[N+](=O)[O-])n1 | inactive: 1.28% |
| O=[N+]([O-])c1cc(Oc2ccc([N+](=O)[O-])cc2C(F)(F)F)cc([N+](=O)[O-])c1 | inactive: 1.14% |
| COc1ccc(N/C(=N/P(=O)(N2CCOCC2)N2CCOCC2)N2CCOCC2)cc1 | inactive: 0.293% |
